Holding throughout (assay): purified protein
One series relates to CC(=O)O. Conditions: apparent; acetyl-CoA forming direction; saturating CoA and ATP.
Series [1] has as its system CC(=O)SCCNC(=O)CCNC(=O)[C@H](O)C(C)(C)COP(=O)(O)OP(=O)(O)OC[C@H]1O[C@@H](n2cnc3c(N)ncnc32)[C@H](O)[C@@H]1OP(=O)(O)O. Conditions: apparent; acetate-forming direction; saturating ADP and Pi.
In series [2] the test system is CC(C)(COP(=O)(O)OP(=O)(O)OC[C@H]1O[C@@H](n2cnc3c(N)ncnc32)[C@H](O)[C@@H]1OP(=O)(O)O)[C@@H](O)C(=O)NCCC(=O)NCCS. Conditions: apparent; acetyl-CoA forming direction; saturating acetate and ATP.
Series [3] deals with Nc1ncnc2c1ncn2[C@@H]1O[C@H](COP(=O)(O)OP(=O)(O)O)[C@@H](O)[C@H]1O. Conditions: apparent; acetate-forming direction; saturating acetyl-CoA and Pi.
Series [4] concerns Nc1ncnc2c1ncn2[C@@H]1O[C@H](COP(=O)(O)OP(=O)(O)OP(=O)(O)O)[C@@H](O)[C@H]1O. Conditions: apparent; acetyl-CoA forming direction; saturating acetate and CoA.
The test system of another series is O=P(O)(O)O. Conditions: apparent; acetate-forming direction; saturating acetyl-CoA and ADP.

In the case of “Entamoeba histolytica ADP-forming acetyl-CoA synthetase (EhACD) (Entamoeba histolytica HM-1:IMSS; H533A)”, the Km is 680 ± 100 µM in the series with CC(=O)O; 10 ± 1 µM in series [1]; 70 ± 10 µM in series [2]; 410 ± 30 µM in series [3]; 2200 ± 100 µM in series [4]; 750 ± 100 µM with O=P(O)(O)O. The kcat amounted to 3.3 s⁻¹ in the series on CC(=O)O; 2.7 s⁻¹ in series [1]; 4.2 s⁻¹ in series [2]; 2.8 s⁻¹ in series [3]; 3.3 s⁻¹ in series [4]; 2.3 s⁻¹ in the series on O=P(O)(O)O. Moreover, the kcat/Km stood at 4800 M⁻¹ s⁻¹ in the series with CC(=O)O; 266000 M⁻¹ s⁻¹ in series [1]; 60000 M⁻¹ s⁻¹ in series [2]; 6900 M⁻¹ s⁻¹ in series [3]; 1600 M⁻¹ s⁻¹ in series [4]; 3100 M⁻¹ s⁻¹ in the series on O=P(O)(O)O.

As for “Entamoeba histolytica ADP-forming acetyl-CoA synthetase (EhACD) (Entamoeba histolytica HM-1:IMSS; H533R)”, in the series with O=P(O)(O)O, the Michaelis constant (Km) was 150 ± 30 µM, the turnover number (kcat) was found to be 14 s⁻¹ and the catalytic efficiency (kcat/Km) worked out at 95000 M⁻¹ s⁻¹.

As for “Entamoeba histolytica ADP-forming acetyl-CoA synthetase (EhACD) (Entamoeba histolytica HM-1:IMSS; D674E)”, the values for the Michaelis constant (Km) (with CC(=O)O; in series [1]; in series [3]) were 3900 ± 300 µM, 22 ± 2 µM and 1440 ± 80 µM, respectively. In addition, the kcat in the series with CC(=O)O came to 50 s⁻¹; in series [1] it was 16 s⁻¹; in series [3], 25 s⁻¹. The values for the kcat/Km (with CC(=O)O; in series [1]; in series [3]) were 13000 M⁻¹ s⁻¹, 704000 M⁻¹ s⁻¹ and 17000 M⁻¹ s⁻¹, respectively.
